A mixed list of measured activities; the numbers were collected in NIAID ChemDB.

Shared fields: tests in culture; species: HIV-1; measure: inhibition

Blank or dashed fields: not listed here. Two numbers with a dash give a range or band. Lines come from different laboratories, so protocols vary. Percent inhibition refers to the dose given; in toxicity tests it is the harm to the cells.

smiles,strain or isolate,read by,dose,cells,setting,result
CC1(C)[C@@H](O[C@H]2O[C@H](C(=O)O)[C@@H](O)[C@H](O)[C@H]2O[C@@H]2O[C@H](C(=O)O)[C@@H](O)[C@H](O)[C@H]2O)CC[C@]2(C)[C@H]3C(=O)C=C4[C@@H]5C[C@@](C)(C(=O)O)CC[C@]5(C)CC[C@@]4(C)[C@]3(C)CC[C@@H]12,IIIB,antigen,1200 µM,MOLT-4,6 d,39.8%
CC(C)[C@H](NC(=O)[C@H](CO)NC(=O)[C@@H](N)CS)C(=O)N[C@H](C(=O)N[C@@H](CS)C(=O)NCC(=O)O)[C@@H](C)O,IIIB,p24,0.132 µM,PBMC(PHA STIM.) + PBMC,-,39%
C[C@H]1[C@H](O)[C@@H](C)/C=C/C=C/C=C/C=C/C=C/C=C/C=C/[C@H](O[C@@H]2O[C@H](C)[C@@H](O)[C@H](N)[C@@H]2O)C[C@@H]2O[C@](O)(C[C@@H](O)C[C@@H](O)CC[C@H](O)[C@@H](O)C[C@@H](O)CC(=O)O[C@H]1C)C[C@H](O)[C@H]2C(=O)O,93TH073 CLADE E R5 (NSI),p24 / RT activity,21.2 µM,PBMC,-,90%
Cc1cn([C@H]2C[C@H](N=[N+]=[N-])[C@@H](COP(=O)(O)OCCO[C@H]3O[C@H](CO)[C@@H](O)[C@H](O)[C@@H]3O)O2)c(=O)[nH]c1=O,LAV-Bru,RT activity,1 µM,U-937,11 d,0%
S=C(NCCc1ccc(Cl)cc1)Nc1nccs1,-,cytopathic effect / XTT,10 µg/mL,MT-4,-,79–93%
Cc1ccc(-c2ccc3c(c2)C=C(C(=O)Nc2ccc(C[N+](C)(C)C4CCOCC4)cc2)CCC3)cc1,Du422 CLADE C,p24,1 µM,PBMC,-,100%
CCc1cccc2c(C(=O)C(=O)N3CCN(C(=O)c4ccccc4)CC3)c[nH]c12,-,RT activity,10 µM,MT-2,-,>98%
CCCCCCCCCCCCCCCCOP(=O)(OCCO[C@@H]1O[C@H](CO)[C@@H](O)[C@H](O)[C@@H]1O)OC[C@H]1O[C@@H](n2cc(C)c(=O)[nH]c2=O)C[C@@H]1N=[N+]=[N-],LAV-Bru,RT activity,0.2 µM,CEM,26 d,0%
O=C(C(=O)N1CCN(C(=O)c2cccc(S)c2)CC1)c1c[nH]c2cccc(F)c12,-,luciferase,10 µM,HeLa + HELA CD4+/CCR5,-,>98%
CC(C)[C@H](NC(=O)[C@H](CO)NC(=O)[C@H](CS)NC(=O)CCC(=O)NCCCOCCOCCCN)C(=O)N[C@H](C(=O)N[C@@H](CS)C(=O)NCC(=O)O)[C@@H](C)O,BaL,p24,0.66 µM,PBMC(PHA STIM.) + PBMC,-,23%
O=C(NCCc1ccccc1)Nc1nncs1,-,cytopathic effect / XTT,1 µg/mL,MT-4,-,100%
O=C(C(=O)N1CCN(C(=O)c2ccccc2)CC1)c1c[nH]c2cc(F)ccc12,BRU,RT activity,10 µM,MT-2,-,>98%
O=C1NC(=S)N[C@@H]1Cc1ccc(O)cc1,-,cytopathic effect / XTT,10 µg/mL,MT-4,-,0%
O=C(C(=O)N1CCN(C(=O)c2cc(Br)ccc2S)CC1)c1c[nH]c2cccc(F)c12,-,luciferase,10 µM,HeLa + HELA CD4+/CCR5,-,>98%
O=C(NCCc1ccccc1)Nc1ccc(F)cc1,-,cytopathic effect / XTT,10 µg/mL,MT-4,-,32–41%
O=C(C(=O)N1CCN(C(=O)c2ccc(Br)o2)CC1)c1c[nH]c2c(F)ccc(F)c12,-,luciferase,10 µM,HeLa + HELA CD4+/CCR5,-,>98%
N#Cc1csc(NC(=O)NCCc2ccccc2)n1,-,cytopathic effect / XTT,1 µg/mL,MT-4,-,51–63%
CC(=O)Oc1ccccc1C(=O)N1CCN(C(=O)C(=O)c2c[nH]c3ccccc23)CC1,BRU,RT activity,10 µM,MT-2,-,65.4%
O=C(NCCc1ccccc1)Nc1nc2ccc(F)cc2s1,-,RT activity,1 µg/mL,MT-4,-,51%
CCCCCCCCCCCCCCCCOP(=O)(OC[C@H]1OC(O)[C@@H](O)[C@@H](O)[C@@H]1O)OC[C@H]1O[C@@H](n2cc(C)c(=O)[nH]c2=O)C[C@@H]1N=[N+]=[N-],LAV-Bru,RT activity,0.2 µM,CEM,15 d,91%
CCOc1ccc2nc(NC(=O)NCCc3ccccc3)sc2c1,-,cytopathic effect / XTT,10 µg/mL,MT-4,-,5%
C[C@@H]1CN(C(=O)c2ccccn2)CCN1C(=O)C(=O)c1c[nH]c2c(F)cccc12,-,luciferase,10 µM,HeLa + HELA CD4+/CCR5,-,>98%

A second listing of 2 rows from above:

{"smiles": "CC(C)[C@H](NC(=O)[C@H](CO)NC(=O)[C@@H](N)CS)C(=O)N[C@H](C(=O)N[C@@H](CS)C(=O)NCC(=O)O)[C@@H](C)O", "strain or isolate": "IIIB", "read by": "p24", "dose": "0.132 µM", "cells": "PBMC(PHA STIM.) + PBMC", "result": "39%"}
{"smiles": "CC(C)[C@H](NC(=O)[C@H](CO)NC(=O)[C@H](CS)NC(=O)CCC(=O)NCCCOCCOCCCN)C(=O)N[C@H](C(=O)N[C@@H](CS)C(=O)NCC(=O)O)[C@@H](C)O", "strain or isolate": "BaL", "read by": "p24", "dose": "0.66 µM", "cells": "PBMC(PHA STIM.) + PBMC", "result": "23%"}